Experimental data: PubChem BioAssay AID1259414 (Drosophila RNAi Screening Center, 2018)

- Screen: 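Host factors increasing or decreasing Wolbachia levels in cultured fly cells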 (primary screen)
- Cell system: Drosophila JW18 cells infected with Wolbachia
- Reagent: long dsRNA against Drosophila genes, 0.25 µg dsRNA per well of a 384-well plate
- Duration: 5 days
- Conditions: cells persistently infected with Wolbachia before knock-down; no added drug
- Detection: 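Automated imaging of bacterial rRNA staining divided by host cell count, reported as plate-normalised robust z-score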
- Reading the numbers: Wolbachia per cell robust z: higher = more Wolbachia per host cell than the plate typical
- Hit rule: 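Active if absolute robust z reaches 1.5 in two or more of three replicates, leaving out multi- or no-target dsRNAs, genes unexpressed in JW18 and A1 wells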
In all, the deposit lists about 24,000 reagents; shown is an unselected part of those that have a named target and a result. Over the whole deposit, about 1,210 (5%) are marked active. 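Inactive calls also include excluded dsRNAs with several or no targets, genes unexpressed in JW18, and well A1, regardless of score.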 Entries without a mark were called inactive. Reagents against one gene are numbered here. Reagent sequences are not shown.

gene	reagent no.	Wolbachia per cell robust z, rep 1	Wolbachia per cell robust z, rep 2	Wolbachia per cell robust z, rep 3
CG4270	1	0.764	0.629	0.632
Cap-D2	1	1.52	0.888	1.2
Cap-D2	2	1.04	0.89	0.548
Vajk1	1	-0.0332	0.032	-0.913
Vajk1	2	-0.513	0.811	-0.034
lic	1	-5.32 (active)	-8.62	0.48
lic	2	-1.74	-1.04	-1.52
rdhB	1	-0.385	-0.379	1.17
CG14990	1	-0.563	-0.347	-0.51
Gr93b	1	-0.469	0.354	0.111
Mapmodulin	1	0.47	-0.497	-0.148
Pdxk	1	-3.37	-0.646	0.699
CG4678	1	0.309	-0.233	-1.94
CG4678	2	-0.19	-1.48	-0.806
CG14820	1	1.08	1.02	0.407
Cpr97Ea	1	0.89	0.254	1.37
Cpr97Ea	2	0.0448	-9.66	-1.23
Ntf-2	1	-1.45	-0.187	0.261
Ntf-2	2	-1.68 (active)	-1.64	-0.389
sdt	1	-1.32	0.209	-0.0557
sdt	2	-0.31	0.906	-0.639
sdt	3	-0.243	0.0385	-0.102
sdt	4	0.0293	-0.911	-1.53
sdt	5	-5.14	0.656	1.06
sdt	6	0.27	-0.584	-0.908
sdt	7	-6.46	0.137	-0.651
GstE5	1	-1.8	-1.53	-1.85
Dad1	1	0.554	-0.103	-1.63
EbpIII	1	-0.282	0.552	0.873
Fum4	1	0.438	-0.164	-0.0121
Fum4	2	1.33	-0.579	1.69
RhoGAP54D	1	0.882	1.52	0.092
RhoGAP54D	2	0.276	0.0974	0.186
Rpt3R	1	0.706	-2.57	1.01
Rpt3R	2	0.993	1.51	1.29
CG14354	1	-0.137	-0.861	0.0887

Records above whose target name begins with V or v (2):
gene	reagent no.	Wolbachia per cell robust z, rep 1	Wolbachia per cell robust z, rep 2	Wolbachia per cell robust z, rep 3
Vajk1	1	-0.0332	0.032	-0.913
Vajk1	2	-0.513	0.811	-0.034

The listing continues.
gene	reagent no.	Wolbachia per cell robust z, rep 1	Wolbachia per cell robust z, rep 2	Wolbachia per cell robust z, rep 3
Tfb1	1	-0.75	0.218	0.225
RabX1	1	0.0669	-0.519	-2.29
CG33923	1	0.576	1.44	0.739
PIG-A	1	0.222	0.776	-0.785
CG31075	1	-2.8 (active)	1.65	-1.56
CG1979	1	0.365	-0.0937	0.142
CG1979	2	0.391	-1.44	0.359
Cnep1r2	1	-0.724	-0.422	-0.896
CG1635	1	0.664	-3.02	-0.449
CG1635	2	0.815	1.56	1.73
cyst	1	-0.443	0.717	0.538
CG30430	1	-1.69	-1.3	-1.63
Sh3beta	1	-4.19 (active)	0.127	-9.44
Sh3beta	2	-0.316	-0.878	0.85
Sh3beta	3	-0.314	0.05	-0.0744
Ssrp	1	-0.133	-6.02	-2.17
Ssrp	2	0.539	-0.775	-8.24
Ssrp	3	3.42	2.9	1.27
Cnot4	1	-0.404	0.291	0.268
Cnot4	2	0.139	0.245	0.518
Jhbp10	1	0.166	1.17	0.693
Lim1	1	-4.91	0.502	-0.855
Lim1	2	0.371	0.597	1.22
upd1	1	-3.85	0.394	0.853
upd1	2	-0.156	0.863	-0.263
CG13458	1	-0.827	-7.78	-0.0861
CG13458	2	1.21	-0.201	-0.223
CG18223	1	0.494	-0.636	0.502
for	1	-0.524	-0.298	0.127
for	2	-1.38	-2.25	1.25
for	3	0.595	-0.39	-0.393
for	4	-0.0882	-3.12	-0.727
